Measured values from several laboratories, pooled; numbers as filed in NIAID ChemDB.

All rows: tests in culture; agent: HIV-1; method: syncytia; measure: EC50

Blank or dashed fields: not listed here. Rows are shuffled and stem from different studies. ECn is the concentration giving n% inhibition of infection, replication or growth.

OB(O)c1ccc(Cl)cc1 ; strain or isolate: IIIB ; cells: CEM ; result: >50 µM
Cc1cn([C@@H]2O[C@H](CO[Si](C)(C)C(C)(C)C)[C@@H](O)[C@H]2O[Si](C)(C)C(C)(C)C)c(=O)n(CC#N)c1=O ; strain or isolate: IIIB ; cells: CEM ; result: >10 µM
COC(=O)[C@H](C)NP(=O)(OC[C@@H]1C=C[C@H](n2cc(C)c(=O)[nH]c2=O)O1)Oc1ccccc1 ; strain or isolate: IIIB ; cells: CEM ; result: 0.13 µM
COc1ccc(B(O)O)cc1C=O ; strain or isolate: IIIB ; cells: CEM ; result: >10 µM
Cc1cn([C@@H]2O[C@H](CO[Si](C)(C)C(C)(C)C)C3(OS(=O)(=O)C=C3N)[C@H]2O[Si](C)(C)C(C)(C)C)c(=O)n(CC(=O)N[C@H](C(=O)OCc2ccccc2)C(C)C)c1=O ; strain or isolate: IIIB ; cells: CEM ; result: 2.3 µM
CC(C)(C)OC(=O)N1CCCN(C(=O)OC(C)(C)C)CCN(C(=O)OC(C)(C)C)CCCN(CCCCC(=O)Nc2ccn([C@H]3CC[C@@H](COC(=O)CCCCN4CCCN(C(=O)OC(C)(C)C)CCN(C(=O)OC(C)(C)C)CCCN(C(=O)OC(C)(C)C)CC4)O3)c(=O)n2)CC1 ; cells: MT-4 ; result: 1 µM
Nc1ccn([C@H]2CC[C@@H](CO)O2)c(=O)n1 ; strain or isolate: IIIB ; cells: CEM ; result: 0.04 µM
CN[C@@H]1[C@H](O[C@@H]2OC[C@@H](O)[C@H](O)[C@H]2O)[C@@H](O)[C@H](O[C@H]2c3cc(C)c(C(=O)N[C@H](C)C(=O)O)c(O)c3-c3c(cc4c(c3O)C(=O)c3cc(OC)cc(O)c3C4=O)[C@@H]2O)O[C@@H]1C ; cells: CEM ; result: 2.8 µg/mL
O=CC1CSCN1C(=O)C1CCCN1C(=O)OCc1ccccc1 ; strain or isolate: LAV ; cells: CEM/MOLT-4 ; result: >100 µM
Cc1cn([C@@H]2O[C@H](CO[Si](C)(C)C(C)(C)C)C3(OS(=O)(=O)C=C3N)[C@H]2O[Si](C)(C)C(C)(C)C)c(=O)n(CC(=O)N[C@@H](C)C(=O)OCc2ccccc2)c1=O ; strain or isolate: IIIB ; cells: CEM ; result: 0.67 µM
Cc1cn([C@@H]2O[C@H](CO[Si](C)(C)C(C)(C)C)[C@@H](O[Si](C)(C)C(C)(C)C)[C@H]2O)c(=O)n(CC(=O)ON)c1=O ; strain or isolate: IIIB ; cells: CEM ; result: >2 µM
CC(C)(C)[Si](C)(C)OC[C@H]1O[C@@H](n2nncc2CBr)[C@H](O[Si](C)(C)C(C)(C)C)C12OS(=O)(=O)C=C2N ; strain or isolate: IIIB ; cells: CEM ; result: 1.3 µM
CC(C)(C)[Si](C)(C)OC[C@H]1O[C@@H](n2ccc(=O)n(CC(=O)O)c2=O)[C@H](O)[C@@H]1O[Si](C)(C)C(C)(C)C ; strain or isolate: IIIB ; cells: CEM ; result: ≥10 µM
CCOC(OCC)c1cnnn1[C@@H]1O[C@H](CO[Si](C)(C)C(C)(C)C)C2(OS(=O)(=O)C=C2N)[C@H]1O[Si](C)(C)C(C)(C)C ; strain or isolate: IIIB ; cells: CEM ; result: 150 µM
C=CCOC(=O)CCCCCCCCC ; cells: CEM ; result: 25 µM
CC(=O)c1ccc(C)cc1NC(C(N)=O)c1c(Cl)cccc1Cl ; strain or isolate: IIIB WT ; cells: CEM ; result: 0.017 µM
Cc1ccnc2c1NC(=O)c1cccnc1N2C1CC1 ; strain or isolate: ADP/141 ; changes: RT-D67N K70R T215F K219Q ; cells: MT-4 ; result: 0.03 µM
O=CN(CCC(=O)O)c1ccc(B(O)O)cc1 ; strain or isolate: IIIB ; cells: CEM ; result: >250 µM
CCc1cn([C@@H]2O[C@H](CO[Si](C)(C)C(C)(C)C)[C@@H](O)[C@H]2O[Si](C)(C)C(C)(C)C)c(=O)n(CC(=O)O)c1=O ; strain or isolate: IIIB ; cells: CEM ; result: 2 µM
CCN1C(=O)N(Cc2ccccc2)S(=O)(=O)c2cscc21 ; changes: RT-V106A ; cells: CEM ; result: >310.2 µM
CN(C)CCCn1c2ccc(O)cc2c2c3c(c4c5cc(O)ccc5[nH]c4c21)C(=O)NC3=O ; cells: U1/HIV-1(+PMA) + U1 ; result: 0.029 µM
Cc1cn([C@@H]2O[C@H](CO[Si](C)(C)C(C)(C)C)C3(OS(=O)(=O)C=C3N)[C@H]2O[Si](C)(C)C(C)(C)C)c(=O)n(C)c1=O ; strain or isolate: TIBO-2(RT-K103N) ; changes: RT-K103N ; cells: CEM ; result: 0.23 µM
Cc1cccc2c1OP(=O)(OC[C@@H]1C=C[C@H](n3cc(C)c(=O)[nH]c3=O)O1)OC2 ; strain or isolate: IIIB ; cells: CEM + CEM/O ; result: 0.073 µM
CCN(CC)C(=O)c1ccc(B(O)O)cc1 ; strain or isolate: IIIB ; cells: CEM ; result: >250 µM
Cc1cn([C@@H]2O[C@H](CO[Si](C)(C)C(C)(C)C)C3(OS(=O)(=O)C=C3N)[C@H]2O[Si](C)(C)C(C)(C)C)c(=O)n(C)c1=O ; strain or isolate: IIIB WT ; cells: CEM ; result: 0.05 µM
CCCC(=O)O[C@H]1CN2CC[C@H](O)[C@@H]2[C@@H](O)[C@@H]1O ; strain or isolate: GB8 ; cells: JM ; result: 0.15 µg/mL
C=CC(C)(C)c1cc(/C=C/C(=O)c2ccc(O)cc2)c(OC)cc1O ; cells: MOLT-4/OKM-1(HIV-1) + MOLT-4 ; result: <20 µg/mL
Nc1ccn([C@H]2CC[C@@H](CO)O2)c(=O)n1 ; strain or isolate: IIIB ; cells: C8166 ; result: 0.05 µM
Nc1ncnc2c1ncn2CCOCP(=O)(O)O ; strain or isolate: IIIB ; cells: CEM ; result: 7 µM
CC(C)(C)OC(=O)N1CCCN(C(=O)OC(C)(C)C)CCN(C(=O)OC(C)(C)C)CCCN(C(=O)CCCC(=O)OC[C@@H]2CC[C@H](n3ccc(N)nc3=O)O2)CC1 ; cells: MT-4 ; result: 5 µM
O=C(C1CSCN1)N1CCSC1 ; strain or isolate: LAV ; cells: CEM/MOLT-4 ; result: >1000 µM
Cc1cc(C)c(Nc2ccnc(Nc3ccc(C#N)cc3)n2)c(C)c1 ; strain or isolate: IIIB ; cells: MT-4 ; result: 0.001 µM
Cc1ccnc2c1NC(=O)c1cccnc1N2C1CC1 ; strain or isolate: LAV-1 ; cells: HT4 + HT4-6C ; result: <1 µM
CC1=C[C@H]([C@H](O)[C@H](C)[C@@H]2C[C@H]3O[C@]34[C@H]3CC[C@@H]5C(C)(C)O[C@H]6CC(=O)O[C@]65C[C@]3(O)CC[C@@]24C)OC1=O ; strain or isolate: IIIB ; cells: C8166 ; result: 42.66 µg/mL
N#CCN1C(=O)N(Cc2ccccc2)S(=O)(=O)c2cscc21 ; changes: RT-Y181C ; cells: CEM ; result: >300 µM
CC(C)(C)OC(=O)N1CCCN(C(=O)OC(C)(C)C)CCN(C(=O)OC(C)(C)C)CCCN(C(=O)CCCC(=O)OC[C@H]2O[C@@H](n3ccc(N)nc3=O)CS2)CC1 ; cells: MT-4 ; result: 5 µM
O=C(C1CSCN1C(=O)OCc1ccccc1)N1CCOCC1 ; strain or isolate: LAV ; cells: CEM/MOLT-4 ; result: >30 µM
COc1ccccc1N1CCN(C(=O)c2cc3cc4c(cc3[nH]2)OCO4)CC1 ; strain or isolate: IIIB ; cells: HT4lacZ-1/IIIB + HT4 LacZ-1 ; result: 11.76 µM
C=CCOC(=O)CCCCCCC ; cells: CEM ; result: 30 µM
CC(C)(C)[Si](C)(C)OC[C@H]1O[C@@H](n2ccc(=O)n(CC(=O)O)c2=O)[C@H](O[Si](C)(C)C(C)(C)C)[C@@H]1O ; strain or isolate: IIIB ; cells: CEM ; result: >10 µM
Cc1cn([C@@H]2O[C@H](CO[Si](C)(C)C(C)(C)C)[C@@]3(OS(=O)(=O)C=C3N)[C@H]2O[Si](C)(C)C(C)(C)C)c(=O)[nH]c1=O ; strain or isolate: IIIB ; cells: CEM ; result: 0.05 µM
COC(=O)[C@H](C)NP(=O)(OC[C@@H]1O[C@H](n2ccc(N)nc2=O)CS1)Oc1ccccc1 ; strain or isolate: IIIB ; cells: CEM/dCK- + CEM ; result: 65 µM
Nc1ccn([C@H]2CC[C@@H](CO)O2)c(=O)n1 ; cells: MT-4 ; result: 0.5 µM
CN1C(=O)N(Cc2ccccc2)S(=O)(=O)c2cscc21 ; changes: RT-Y181C ; cells: CEM ; result: >324 µM
C=C(C)OC(=O)N1c2cc(Cl)ccc2NC(=S)C1(C)C ; strain or isolate: HEPT (RT Y188H) ; changes: RT-Y188H ; cells: CEM ; result: 1.1 µM
OB(O)c1ccc(F)cc1 ; strain or isolate: IIIB ; cells: CEM ; result: >250 µM
CC(C)Nc1cccnc1N1CCN(C(=O)c2cc3cc4c(cc3[nH]2)OCO4)CC1 ; strain or isolate: IIIB ; cells: HT4lacZ-1/IIIB + HT4 LacZ-1 ; result: 0.072 µM
CC(C)=CCN1Cc2cc(Cl)cc3[nH]c(=S)n(c23)C[C@@H]1C ; strain or isolate: NEV(RT-V106A) ; changes: RT-V106A ; cells: CEM ; result: 1.6 µM
O=C(O[C@H]1CN2CC[C@H](O)[C@@H]2[C@@H](O)[C@@H]1O)c1ccc(Br)cc1 ; strain or isolate: GB8 ; cells: JM ; result: 0.75 µg/mL
O=C(O)CCc1ccc(B(O)O)cc1 ; strain or isolate: IIIB ; cells: CEM ; result: >250 µM
CC(C)(C)OC(=O)N1CCCN(C(=O)OC(C)(C)C)CCN(C(=O)OC(C)(C)C)CCCN(C(=O)CCCC(=O)OC[C@@H]2CC[C@H](n3cnc4c(=O)[nH]cnc43)O2)CC1 ; cells: MT-4 ; result: >50 µM
COc1ccc2c(c1)N(C(=O)OC(C)C)[C@@H](CSC)C(=S)N2 ; strain or isolate: HXB2 (RT E138A S162C E169D T200A L214F) Clinical isolate ; changes: RT-E138A S162C E169D T200A L214F ; cells: CEM ; result: 0.029 µM
COc1c2c(cc3oc(=O)c(-c4ccc(O)cc4O)cc13)OC(C)(CO)CC2 ; cells: MOLT-4/OKM-1(HIV-1) + MOLT-4 ; result: <20 µg/mL
CC(C)=CCN1Cc2cc(Cl)cc3[nH]c(=S)n(c23)C[C@@H]1C ; strain or isolate: IIIB WT ; cells: CEM ; result: 0.047 µM
OCc1ccccc1B(O)O ; strain or isolate: IIIB ; cells: CEM ; result: >50 µM
CC(=O)OCOC(=O)CCc1ccc2c(c1)COP(=O)(OC[C@@H]1C=C[C@H](n3cc(C)c(=O)[nH]c3=O)O1)O2 ; strain or isolate: IIIB ; cells: CEM + CEM/O ; result: 0.2 µM
CCn1c(=O)c(C)cn([C@@H]2O[C@H](CO[Si](C)(C)C(C)(C)C)C3(OS(=O)(=O)C=C3N)[C@H]2O[Si](C)(C)C(C)(C)C)c1=O ; strain or isolate: IIIB ; changes: RT-E138K ; cells: CEM ; result: >32.4 µM

For reference, 8 entries again:

SMILES	strain or isolate	changes	cells	result
Cc1cn([C@@H]2O[C@H](CO[Si](C)(C)C(C)(C)C)[C@@H](O)[C@H]2O[Si](C)(C)C(C)(C)C)c(=O)n(CC#N)c1=O	IIIB	-	CEM	>10 µM
CN(C)CCCn1c2ccc(O)cc2c2c3c(c4c5cc(O)ccc5[nH]c4c21)C(=O)NC3=O	-	-	U1/HIV-1(+PMA) + U1	0.029 µM
CC(=O)OCOC(=O)CCc1ccc2c(c1)COP(=O)(OC[C@@H]1C=C[C@H](n3cc(C)c(=O)[nH]c3=O)O1)O2	IIIB	-	CEM + CEM/O	0.2 µM
Cc1cn([C@@H]2O[C@H](CO[Si](C)(C)C(C)(C)C)C3(OS(=O)(=O)C=C3N)[C@H]2O[Si](C)(C)C(C)(C)C)c(=O)n(CC(=O)N[C@H](C(=O)OCc2ccccc2)C(C)C)c1=O	IIIB	-	CEM	2.3 µM
Cc1cn([C@@H]2O[C@H](CO[Si](C)(C)C(C)(C)C)C3(OS(=O)(=O)C=C3N)[C@H]2O[Si](C)(C)C(C)(C)C)c(=O)n(C)c1=O	IIIB WT	-	CEM	0.05 µM
O=C(O[C@H]1CN2CC[C@H](O)[C@@H]2[C@@H](O)[C@@H]1O)c1ccc(Br)cc1	GB8	-	JM	0.75 µg/mL
CCOC(OCC)c1cnnn1[C@@H]1O[C@H](CO[Si](C)(C)C(C)(C)C)C2(OS(=O)(=O)C=C2N)[C@H]1O[Si](C)(C)C(C)(C)C	IIIB	-	CEM	150 µM
N#CCN1C(=O)N(Cc2ccccc2)S(=O)(=O)c2cscc21	-	RT-Y181C	CEM	>300 µM